PubChem BioAssay AID1259414, Drosophila RNAi Screening Center, 2018
The screen tested about 24,000 reagents; this is a random part of those with a known target gene and a result. Over the whole deposit, about 1,210 (5%) were called active. 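Inactive calls also include excluded dsRNAs with several or no targets, genes unexpressed in JW18, and well A1, regardless of score.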 A number with no mark means an inactive call. A plus sign joins genes that one reagent is predicted to hit.

Aim: 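Host factors increasing or decreasing Wolbachia levels in cultured fly cells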 (primary screen)
System: Drosophila JW18 cells infected with Wolbachia
Reagent: long dsRNA against Drosophila genes, 0.25 µg dsRNA per well of a 384-well plate
Duration: 5 days
Treatment: cells persistently infected with Wolbachia before knock-down; no added drug
Measurement: 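Automated imaging of bacterial rRNA staining divided by host cell count, reported as plate-normalised robust z-score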
Scale: Wolbachia per cell robust z: higher = more Wolbachia per host cell than the plate typical
Active means: 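Active if absolute robust z reaches 1.5 in two or more of three replicates, leaving out multi- or no-target dsRNAs, genes unexpressed in JW18 and A1 wells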

For CG32801 [DRSC17964], what was measured?
Wolbachia per cell robust z, rep 1: -2.35; Wolbachia per cell robust z, rep 2: 0.221; Wolbachia per cell robust z, rep 3: -1.63

With CG32801 [DRSC25614], what does the deposit list?
Wolbachia per cell robust z, rep 1: -0.403; Wolbachia per cell robust z, rep 2: -0.784; Wolbachia per cell robust z, rep 3: -0.532

For thw [DRSC12552], what does the deposit list?
Wolbachia per cell robust z, rep 1: 0.657; Wolbachia per cell robust z, rep 2: -0.427; Wolbachia per cell robust z, rep 3: -0.964

Which result is listed for CG13560 [DRSC04198]?
Wolbachia per cell robust z, rep 1: -0.0606; Wolbachia per cell robust z, rep 2: 0.947; Wolbachia per cell robust z, rep 3: -0.201

For CG13560 [DRSC27479], what does the deposit list?
Wolbachia per cell robust z, rep 1: 0.637; Wolbachia per cell robust z, rep 2: -0.144; Wolbachia per cell robust z, rep 3: -0.19

How did the screen score Trf [DRSC03462]?
Wolbachia per cell robust z, rep 1: 0.861; Wolbachia per cell robust z, rep 2: -0.108; Wolbachia per cell robust z, rep 3: -1.4

Which result is listed for Snrk [DRSC07192]?
Wolbachia per cell robust z, rep 1: 0.163; Wolbachia per cell robust z, rep 2: 0.389; Wolbachia per cell robust z, rep 3: 0.194

With Snrk [DRSC23332], what was measured?
Wolbachia per cell robust z, rep 1: -1.16; Wolbachia per cell robust z, rep 2: 0.331; Wolbachia per cell robust z, rep 3: -0.658

With Amy-p + Amy-d [DRSC21242], what was measured?
Wolbachia per cell robust z, rep 1: -1.77; Wolbachia per cell robust z, rep 2: -0.0671; Wolbachia per cell robust z, rep 3: -0.261

For CG10062 [DRSC05960], how do the results read?
Wolbachia per cell robust z, rep 1: 0.681; Wolbachia per cell robust z, rep 2: 0.892; Wolbachia per cell robust z, rep 3: 1

With CG10062 [DRSC22535], what was measured?
Wolbachia per cell robust z, rep 1: -2.14; Wolbachia per cell robust z, rep 2: -1.95; Wolbachia per cell robust z, rep 3: -0.219

For CG10062 [DRSC24932], what does the deposit list?
Wolbachia per cell robust z, rep 1: -9.47; Wolbachia per cell robust z, rep 2: -0.176; Wolbachia per cell robust z, rep 3: -3.44

For CG13060 [DRSC09943], how do the results read?
Wolbachia per cell robust z, rep 1: -3.6; Wolbachia per cell robust z, rep 2: -5.76; Wolbachia per cell robust z, rep 3: 1.56

For CG13060 [DRSC28110], how do the results read?
Wolbachia per cell robust z, rep 1: 0.633; Wolbachia per cell robust z, rep 2: -0.316; Wolbachia per cell robust z, rep 3: -1.11

How did the screen score CG4836 [DRSC15659]?
Wolbachia per cell robust z, rep 1: -0.118; Wolbachia per cell robust z, rep 2: 0.576; Wolbachia per cell robust z, rep 3: -7.16

For CG4836 [DRSC22066], how do the results read?
Wolbachia per cell robust z, rep 1: 0.336; Wolbachia per cell robust z, rep 2: 0.56; Wolbachia per cell robust z, rep 3: 0.316

How did the screen score CG4836 [DRSC24789]?
Wolbachia per cell robust z, rep 1: -0.908; Wolbachia per cell robust z, rep 2: -0.405; Wolbachia per cell robust z, rep 3: -0.754

For abs [DRSC12372], what was measured?
Wolbachia per cell robust z, rep 1: 0.588; Wolbachia per cell robust z, rep 2: -0.0177; Wolbachia per cell robust z, rep 3: -0.23

For CG7492 [DRSC10855], how do the results read?
Wolbachia per cell robust z, rep 1: -1.54; Wolbachia per cell robust z, rep 2: 0.817; Wolbachia per cell robust z, rep 3: 0.49

How did the screen score CG12420 + CG12817 [DRSC22814]?
Wolbachia per cell robust z, rep 1: 0.79; Wolbachia per cell robust z, rep 2: -0.0366; Wolbachia per cell robust z, rep 3: -0.795

Which result is listed for imd [DRSC05928]?
Wolbachia per cell robust z, rep 1: -0.886; Wolbachia per cell robust z, rep 2: -0.851; Wolbachia per cell robust z, rep 3: 0.621

How did the screen score imd [DRSC26032]?
Wolbachia per cell robust z, rep 1: 0.00577; Wolbachia per cell robust z, rep 2: -1.08; Wolbachia per cell robust z, rep 3: -0.00055

What is on record for lncRNA:CR32730 [DRSC22957]?
Wolbachia per cell robust z, rep 1: -4.63; Wolbachia per cell robust z, rep 2: -0.132; Wolbachia per cell robust z, rep 3: 0.363

With CG12502 [DRSC23247], what does the deposit list?
Wolbachia per cell robust z, rep 1: -2.8; Wolbachia per cell robust z, rep 2: 1.69; Wolbachia per cell robust z, rep 3: 1.02

Records above whose gene name begins with T or t (2):
thw [DRSC12552] → Wolbachia per cell robust z, rep 1 = 0.657; Wolbachia per cell robust z, rep 2 = -0.427; Wolbachia per cell robust z, rep 3 = -0.964
Trf [DRSC03462] → Wolbachia per cell robust z, rep 1 = 0.861; Wolbachia per cell robust z, rep 2 = -0.108; Wolbachia per cell robust z, rep 3 = -1.4
